Reference: PMC6712002, “Comprehensive in vitro characterization of PD-L1 small molecule inhibitors” (Scientific Reports, 2019)

Test system: peripheral blood mononuclear cells (PBMCs)
Assay: IL-2 production by SEB-stimulated PBMCs (ELISA)
Format: cell-based, human
Conditions: Compound A treatment

In the case of `Cc1ccc2ccccc2c1CN1CCN(c2c([N+](=O)[O-])c(=O)n(C)c3ccccc23)CC1` [Compound A], the “fold production of IL-2” value is reported as 2 fold.
